# Deep mutational scan of the Zika virus protease

The measurements come from Ni et al. 2025 (doi:10.1038/s41467-025-63602-z).

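Libraries of single mutants were passaged as virus pools on Huh-7.5 cells. Deep sequencing gave the change in frequency of each mutant relative to wild type, averaged over three replicate libraries (two for positions 207-308).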

The scanned region of Zika virus MR766 is shown below (positions 1-308): NS2B is 2-131, NS3 begins at position 132.
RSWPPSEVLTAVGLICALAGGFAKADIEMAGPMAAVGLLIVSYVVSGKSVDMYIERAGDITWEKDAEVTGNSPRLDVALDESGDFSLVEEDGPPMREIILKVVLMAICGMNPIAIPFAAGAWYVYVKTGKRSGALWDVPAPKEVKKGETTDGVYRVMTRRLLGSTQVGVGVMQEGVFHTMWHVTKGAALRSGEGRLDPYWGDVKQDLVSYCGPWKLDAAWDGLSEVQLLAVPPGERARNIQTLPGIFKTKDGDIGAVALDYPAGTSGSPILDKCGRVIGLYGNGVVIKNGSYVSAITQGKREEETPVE

The number is log2 of the effect relative to wild type; negative values mean reduced growth, higher values better tolerance.
A change reads original residue, position, new residue.
This list holds changes to methionine only.
Six mutants with high scores were retested singly and none clearly outgrew wild type, so positive values are not proof of better growth.
The authors count -1 or higher as tolerated. Position 1 is the last residue of NS2A.
The region was split into three libraries (1-103, 104-206, 207-308).

With R1M the assay gave -8.12. With S2M the assay gave -7.30. W3M gave -4.44. With P4M the assay gave -5.33. P5M read -6.07. S6M read -4.04. With E7M the assay gave -3.89. With V8M the assay gave -1.77. L9M read -0.66.

With T10M the assay gave -4.75. With A11M the assay gave -3.98. With V12M the assay gave -3.01. G13M gave -6.00. L14M read -1.18. For I15M the result was -0.43. C16M read -5.41. A17M read 0.76. L18M read -1.23.

A19M read -4.14. For G20M the result was -3.40. With G21M the assay gave -6.55. With F22M the assay gave 1.42. A23M gave -2.06. K24M read -3.94. A25M read 1.07. With D26M the assay gave -4.79. For I27M the result was -1.15.

E28M read -3.31. With A30M the assay gave 0.30. G31M read -5.12. P32M gave -5.29. A34M read -5.15. A35M read -5.64. With V36M the assay gave -3.07. G37M read -5.22. L38M gave -0.40.

L39M gave -0.79. With I40M the assay gave 0.52. V41M gave -3.16. S42M read -6.17. Y43M read -6.15. With V44M the assay gave -5.32. V45M gave -5.17. S46M read 0.50. With G47M the assay gave -5.97.

K48M read -6.53. S49M gave -3.43.

Extract of 3 entries:

* G31M -> -5.12
* S46M -> 0.50
* E28M -> -3.31